Data as given in PubChem BioAssay AID624099 (ICCB-Longwood, 2012).

- Test: 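Knock-downs relieving repression by E2 of an HPV18 LCR luciferase reporter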 (primary screen)
- System: human C33A cervical carcinoma cells (HPV-negative) stably expressing BPV1 E2 and an HPV18 LCR luciferase reporter
- Reagents: siRNA pool against human genes, 40 nM
- Time to read-out: 72 h
- Measurement: 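Per-well luciferase luminescence, z-scored on each plate against the plate mean and SD with control wells left out, then averaged across three replicate plates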
- Reading the numbers: mean z-score and z-score: higher = stronger reporter signal, weaker E2 silencing
- Call rule: 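Mean z ≥ 2 together with z ≥ 2 in two or more of the three replicates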
The deposit covers about 21,000 reagents; below is an unselected part. 497 of them (2.4%) were called active. 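Higher z means weaker E2 silencing; only reporter increases were scored, and knock-downs that hurt cell survival may mask genuine repressor factors.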 The numbers tell different reagents against one gene apart.

TMED9 (transmembrane p24 trafficking protein 9) → mean z-score: 1.79; z-score, replicate A: 1.88; z-score, replicate B: 1.84; z-score, replicate C: 1.66; Call: inactive
TBX2 (T-box transcription factor 2) → mean z-score: -0.91; z-score, replicate A: -1.06; z-score, replicate B: -0.9; z-score, replicate C: -0.78; Call: inactive
M6PR (mannose-6-phosphate receptor, cation dependent) → mean z-score: 0.75; z-score, replicate A: 0.9; z-score, replicate B: 0.67; z-score, replicate C: 0.68; Call: inactive
H4C3 (H4 clustered histone 3) → mean z-score: -0.96; z-score, replicate A: -0.94; z-score, replicate B: -0.94; z-score, replicate C: -0.99; Call: inactive
SUPT4H1 (SPT4 homolog, DSIF elongation factor subunit) → mean z-score: 0.24; z-score, replicate A: 0.1; z-score, replicate B: 0.32; z-score, replicate C: 0.31; Call: inactive
TMEM266 (transmembrane protein 266) → mean z-score: -0.08; z-score, replicate A: -0.14; z-score, replicate B: 0.2; z-score, replicate C: -0.3; Call: inactive
IL22RA1 (interleukin 22 receptor subunit alpha 1) → mean z-score: -1.41; z-score, replicate A: -1.65; z-score, replicate B: -1.25; z-score, replicate C: -1.32; Call: inactive
NLRC3 (NLR family CARD domain containing 3) → mean z-score: -1.41; z-score, replicate A: -1.07; z-score, replicate B: -1.56; z-score, replicate C: -1.6; Call: inactive
PF4V1 (platelet factor 4 variant 1) → mean z-score: 1.64; z-score, replicate A: 1.53; z-score, replicate B: 1.78; z-score, replicate C: 1.62; Call: inactive
OR4F16 (olfactory receptor family 4 subfamily F member 16) #1 → mean z-score: 0.48; z-score, replicate A: 0.58; z-score, replicate B: 0.49; z-score, replicate C: 0.37; Call: inactive
OR4F16 (olfactory receptor family 4 subfamily F member 16) #2 → mean z-score: -1.75; z-score, replicate A: -1.56; z-score, replicate B: -1.83; z-score, replicate C: -1.87; Call: inactive
EML6 (EMAP like 6) → mean z-score: -0.2; z-score, replicate A: 0.59; z-score, replicate B: -0.48; z-score, replicate C: -0.69; Call: inactive
ZNF431 (zinc finger protein 431) → mean z-score: 0.23; z-score, replicate A: 0.28; z-score, replicate B: 0.1; z-score, replicate C: 0.29; Call: inactive
KLRF1 (killer cell lectin like receptor F1) → mean z-score: -0.41; z-score, replicate A: -0.52; z-score, replicate B: -0.4; z-score, replicate C: -0.32; Call: inactive
THY1 (Thy-1 cell surface antigen) #1 → mean z-score: 0.76; z-score, replicate A: 0.7; z-score, replicate B: 0.76; z-score, replicate C: 0.82; Call: inactive
THY1 (Thy-1 cell surface antigen) #2 → mean z-score: 0.24; z-score, replicate A: 0.17; z-score, replicate B: 0.04; z-score, replicate C: 0.51; Call: inactive
CA5A (carbonic anhydrase 5A) → mean z-score: -0.2; z-score, replicate A: -0.15; z-score, replicate B: -0.34; z-score, replicate C: -0.12; Call: inactive
STYXL2 (serine/threonine/tyrosine interacting like 2) → mean z-score: -0.39; z-score, replicate A: -0.57; z-score, replicate B: 0; z-score, replicate C: -0.61; Call: inactive
RNF128 (ring finger protein 128) → mean z-score: -0.61; z-score, replicate A: -1.02; z-score, replicate B: -0.73; z-score, replicate C: -0.07; Call: inactive
ITGA6 (integrin subunit alpha 6) → mean z-score: -0.17; z-score, replicate A: -0.37; z-score, replicate B: -0.07; z-score, replicate C: -0.06; Call: inactive
ZSCAN23 (zinc finger and SCAN domain containing 23) → mean z-score: 1.85; z-score, replicate A: 1.69; z-score, replicate B: 2.01; z-score, replicate C: 1.97; Call: inactive
ZSCAN18 (zinc finger and SCAN domain containing 18) → mean z-score: -0.15; z-score, replicate A: -0.07; z-score, replicate B: -0.07; z-score, replicate C: -0.3; Call: inactive
PDCD2 (programmed cell death 2) → mean z-score: -0.12; z-score, replicate A: -0.04; z-score, replicate B: -0.37; z-score, replicate C: 0.04; Call: inactive
SPSB4 (splA/ryanodine receptor domain and SOCS box containing 4) → mean z-score: 0.88; z-score, replicate A: 1.26; z-score, replicate B: 0.82; z-score, replicate C: 0.55; Call: inactive
FBXO32 (F-box protein 32) → mean z-score: 0.26; z-score, replicate A: 0.3; z-score, replicate B: -0.06; z-score, replicate C: 0.55; Call: inactive
RSPH1 (radial spoke head component 1) → mean z-score: 0.32; z-score, replicate A: 0.51; z-score, replicate B: 0.38; z-score, replicate C: 0.07; Call: inactive
HEMK2 → mean z-score: -0.19; z-score, replicate A: 0.04; z-score, replicate B: -0.38; z-score, replicate C: -0.23; Call: inactive
